Patent US20090280130A1 (priority 2006, published 2009)

Tested on: zebrafish embryos
Test: Zebrafish embryo LeTx toxin phenotype scoring, Experiment #2 (higher LeTx)
Assay type: in vivo
Settings: LeTx ~75 fMoles PA+~110 fMoles LF, ~28 hours post injection; for # Wild-type Phen / Mild Phen / Severe Toxin Phen: number of embryos

SMILES: Cc1cc(F)c(Nc2ncnc3cc(OCc4ccccc4)ccc23)cc1O
- % With Toxin Phen (Mild and Severe) (inhibitor 250 nM): 95%
- % With Toxin Phen (Mild and Severe) (inhibitor 500 nM): 30%
- % With Toxin Phen (Mild and Severe) (inhibitor 1.5 uM): 74%
- # Wild-type Phen (inhibitor 250 nM): 1
- Mild Phen (inhibitor 250 nM): 5
- Severe Toxin Phen (inhibitor 250 nM): 13
- # Wild-type Phen (inhibitor 500 nM): 14
- Mild Phen (inhibitor 500 nM): 4
- Severe Toxin Phen (inhibitor 500 nM): 2
- # Wild-type Phen (inhibitor 1 uM): 6
- Mild Phen (inhibitor 1 uM): 7
- Severe Toxin Phen (inhibitor 1 uM): 7
- # Wild-type Phen (inhibitor 1.5 uM): 5
- Mild Phen (inhibitor 1.5 uM): 9
- Severe Toxin Phen (inhibitor 1.5 uM): 5
